PubChem BioAssay AID1259414 | Drosophila RNAi Screening Center – 2018
Assay: 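Genome-wide screen for host control of endosymbiont load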 (primary screen). Cell system: Drosophila JW18 cells infected with Wolbachia. Reagents: long dsRNA against Drosophila genes, 0.25 µg dsRNA per well of a 384-well plate. Time to read-out: 5 days. Conditions: cells persistently infected with Wolbachia before knock-down; no added drug. Measured: 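Imaged fluorescence in situ signal for Wolbachia 23S rRNA per DAPI-counted host cell, given as a robust z-score within each plate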. Scale: Wolbachia per cell robust z: higher = more Wolbachia per host cell than the plate typical. Call rule: 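Active if absolute robust z reaches 1.5 in two or more of three replicates, leaving out multi- or no-target dsRNAs, genes unexpressed in JW18 and A1 wells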.
The deposit covers about 24,000 reagents; below is a random part of those with a known target gene and a result. In the full data, about 1,210 (5%) are marked active. 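Inactive calls also include excluded dsRNAs with several or no targets, genes unexpressed in JW18, and well A1, regardless of score.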 Reagents against one gene are numbered here. A plus sign joins genes that one reagent is predicted to hit.

gene,dsRNA no.,"Wolbachia per cell robust z, rep 1","Wolbachia per cell robust z, rep 2","Wolbachia per cell robust z, rep 3",activity call
Bap60 (Brahma associated protein 60kD),1,0.992,1.28,-0.482,inactive
rt (rotated abdomen),1,-1.03,-4.32,0.21,inactive
Hsc20 (Heat shock protein cognate 20),1,-1.05,-1.48,-0.0316,inactive
CG3927 + nsr,1,-6.05,-1.39,-1.42,inactive
Ibf2 (Insulator binding factor 2),1,-0.801,1.89,0.77,inactive
CG1523,1,0.323,-0.89,0.08,inactive
CG1523,2,0.643,1.26,-4.34,inactive
CG2540,1,0.758,-0.159,0.0659,inactive
CG9547,1,-5.91,-0.425,-1.31,inactive
CG9547,2,-0.039,0.505,0.831,inactive
CG4496,1,-1.41,-0.595,0.0969,inactive
dbr (debra),1,-2,-3.16,-7.25,inactive
CG11755,1,-3.83,-0.215,0.731,inactive
CG11755,2,1.03,0.849,1.54,inactive
lncRNA:CR42850 (long non-coding RNA:CR42850),1,0.677,0.532,-0.379,inactive
Sas10 (Something about silencing 10),1,0.217,0.286,-0.265,inactive
CG9328,1,0.501,0.0747,-1.53,inactive
CG33688,1,0.908,-0.224,0.727,inactive
mia (meiosis I arrest),1,0.353,0.953,-2.18,inactive
Cyp9h1 (Cytochrome P450 9h1),1,0.867,0.83,0.472,inactive
Cyp9h1 (Cytochrome P450 9h1),2,-0.909,-0.589,1.5,inactive
CG42471,1,0.626,0.666,1.15,inactive
CG2186,1,0.455,0.0873,0.0515,inactive
CG2186,2,0.804,0.709,-0.153,inactive
onecut,1,0.472,0.576,0.636,inactive
onecut,2,-0.802,-1.11,0.151,inactive
Oatp58Dc (Organic anion transporting polypeptide 58Dc),1,-0.219,0.415,0.274,inactive
Oatp58Dc (Organic anion transporting polypeptide 58Dc),2,-2.47,0.0683,0.549,inactive
Oatp58Dc (Organic anion transporting polypeptide 58Dc),3,-0.425,0.115,0.637,inactive
Irk3 (Inwardly rectifying potassium channel 3),1,-0.713,-1.25,-0.451,inactive
E2f2 (E2F transcription factor 2),1,-0.906,0.509,0.554,inactive
CG15478,1,0.22,-1.65,0.387,inactive
CG15478,2,-1.11,1.38,-9.48,inactive
CG18585,1,-5.49,-0.734,-0.439,inactive
Art7 (Arginine methyltransferase 7),1,-0.0383,1.47,0.641,inactive
Art7 (Arginine methyltransferase 7),2,0.97,0.675,0.203,inactive
CG15888,1,0.632,0.506,0.368,inactive
CG15888,2,-2.52,-1.11,0.367,inactive
tbrd-1,1,0.0976,-2.71,-6.12,inactive
CG7987,1,-3.59,-0.767,-7.07,active
CG7987,2,0.592,0.651,-0.0668,inactive
Zmynd8 (Zinc finger MYND-type containing 8),1,0.607,0.765,0.933,inactive
Zmynd8 (Zinc finger MYND-type containing 8),2,1.6,1.33,1.65,active
plh (pasang lhamu),1,-0.35,-1.31,0.565,inactive
CG18749 + CG33722,1,0.025,-0.0307,0.117,inactive
CG18789 + CG18787,1,-1.66,-2.4,-0.936,inactive
Cpsf6 (Cleavage and polyadenylation specific factor 6),1,1.31,-1.24,-0.161,inactive
CG41099,1,1.18,2.39,0.204,inactive
CG4239,1,-0.139,-4.46,0.324,inactive
tex,1,0.419,-0.0424,0.433,inactive
CG14000,1,1.36,-0.675,0.545,inactive
CG1698,1,-0.713,0.763,0.286,inactive
CG1698,2,-0.266,-0.109,-0.423,inactive
Rai1 (Rat1 Interacting Protein 1),1,-2.01,0.0334,0.582,inactive
Rai1 (Rat1 Interacting Protein 1),2,0.32,0.445,0.441,inactive
IntS2 (Integrator 2),1,-0.326,1.35,2.62,inactive
Exd2 (Exonuclease 3'-5' domain-containing 2),1,-0.716,-1.56,-0.175,inactive
Exd2 (Exonuclease 3'-5' domain-containing 2),2,0.102,0.418,0.369,inactive
Muc91C (Mucin 91C),1,0.48,-0.984,0.0108,inactive
Muc91C (Mucin 91C),2,-1.04,-1.03,-1.25,inactive
Muc91C (Mucin 91C),3,0.64,-2.64,-0.653,inactive
CG11889 + CG11891,1,0.709,0.238,-0.843,inactive
CG11889 + CG11891,2,0.534,-0.101,0.278,inactive
CG11889 + CG11891,3,1.16,0.637,-0.32,inactive
Ret (Ret oncogene),1,-2.8,0.409,0.539,inactive
Ret (Ret oncogene),2,-0.79,-0.864,0.358,inactive
CG1077,1,0.95,-1.16,0.503,inactive
CG1077,2,0.708,1.79,0.402,inactive

Looked up above:
For “activity call”, dbr (debra) has inactive
Art7 (Arginine methyltransferase 7) #1, Wolbachia per cell robust z, rep 2: 1.47
Hsc20 (Heat shock protein cognate 20), Wolbachia per cell robust z, rep 2: -1.48
Value for CG11755 #2 under “Wolbachia per cell robust z, rep 2”: 0.849
For “Wolbachia per cell robust z, rep 3”, Oatp58Dc (Organic anion transporting polypeptide 58Dc) #1 has 0.274
